{"source": "PubChem BioAssay AID624099 (ICCB-Longwood, 2012)", "screen": "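Host factors E2 relies on to silence an HPV18 LCR reporter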 (primary screen)", "cell system": "human C33A cervical carcinoma cells (HPV-negative) stably expressing BPV1 E2 and an HPV18 LCR luciferase reporter", "reagents": "siRNA pool against human genes, 40 nM", "timing": "72 h", "measured": "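Per-well luciferase luminescence, z-scored on each plate against the plate mean and SD with control wells left out, then averaged across three replicate plates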", "reading the numbers": "mean z-score and z-score: higher = stronger reporter signal, weaker E2 silencing", "active means": "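Hit if mean z-score reaches 2 and two or more of three replicate z-scores also reach 2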", "note": "The deposit covers about 21,000 reagents; this is a random part of them. 497 of them (2.4%) count as active. 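Higher z means weaker E2 silencing; only reporter increases were scored, and knock-downs that hurt cell survival may mask genuine repressor factors.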 Entries without a mark were called inactive. Reagents against one gene are numbered here."}
The opening 2 entries, ahead of the listing:
{"gene": "PSMC1 (proteasome 26S subunit, ATPase 1)", "reagent": 1, "mean z-score": -2.42, "z-score, replicate A": -2.51, "z-score, replicate B": -2.55, "z-score, replicate C": -2.19}
{"gene": "DUSP1 (dual specificity phosphatase 1)", "reagent": 1, "mean z-score": -0.19, "z-score, replicate A": -0.22, "z-score, replicate B": -0.12, "z-score, replicate C": -0.22}

Main list, repeating the preview:
{"gene": "PSMC1 (proteasome 26S subunit, ATPase 1)", "reagent": 1, "mean z-score": -2.42, "z-score, replicate A": -2.51, "z-score, replicate B": -2.55, "z-score, replicate C": -2.19}
{"gene": "DUSP1 (dual specificity phosphatase 1)", "reagent": 1, "mean z-score": -0.19, "z-score, replicate A": -0.22, "z-score, replicate B": -0.12, "z-score, replicate C": -0.22}
{"gene": "DNAJC27 (DnaJ heat shock protein family (Hsp40) member C27)", "reagent": 1, "mean z-score": 1.57, "z-score, replicate A": 1.64, "z-score, replicate B": 1.77, "z-score, replicate C": 1.31}
{"gene": "ID3 (inhibitor of DNA binding 3)", "reagent": 1, "mean z-score": -0.74, "z-score, replicate A": -0.81, "z-score, replicate B": -0.72, "z-score, replicate C": -0.7}
{"gene": "KIF26B (kinesin family member 26B)", "reagent": 1, "mean z-score": -0.29, "z-score, replicate A": 0.05, "z-score, replicate B": 0.3, "z-score, replicate C": -1.22}
{"gene": "KIF26B (kinesin family member 26B)", "reagent": 2, "mean z-score": 1.17, "z-score, replicate A": 1.09, "z-score, replicate B": 1.15, "z-score, replicate C": 1.28}
{"gene": "EPN2 (epsin 2)", "reagent": 1, "mean z-score": 1.31, "z-score, replicate A": 1.16, "z-score, replicate B": 1.18, "z-score, replicate C": 1.58}
{"gene": "TAS2R3 (taste 2 receptor member 3)", "reagent": 1, "mean z-score": 1.27, "z-score, replicate A": 1.13, "z-score, replicate B": 1.39, "z-score, replicate C": 1.28}
{"gene": "LCN1 (lipocalin 1)", "reagent": 1, "mean z-score": -0.14, "z-score, replicate A": -0.21, "z-score, replicate B": -0.03, "z-score, replicate C": -0.17}
{"gene": "IL17C (interleukin 17C)", "reagent": 1, "mean z-score": -0.15, "z-score, replicate A": -0.04, "z-score, replicate B": -0.14, "z-score, replicate C": -0.27}
{"gene": "HYAL2 (hyaluronidase 2)", "reagent": 1, "mean z-score": -1.26, "z-score, replicate A": -1.33, "z-score, replicate B": -1.19, "z-score, replicate C": -1.27}
{"gene": "TOM1L1 (target of myb1 like 1 membrane trafficking protein)", "reagent": 1, "mean z-score": 1.59, "z-score, replicate A": 1.47, "z-score, replicate B": 1.53, "z-score, replicate C": 1.75}
{"gene": "LPA (lipoprotein(a))", "reagent": 1, "mean z-score": 0.11, "z-score, replicate A": -0.08, "z-score, replicate B": 0.18, "z-score, replicate C": 0.25}
{"gene": "MXD3 (MAX dimerization protein 3)", "reagent": 1, "mean z-score": "5.19 (active)", "z-score, replicate A": 5, "z-score, replicate B": 5.17, "z-score, replicate C": 5.4}
{"gene": "PIGU (phosphatidylinositol glycan anchor biosynthesis class U)", "reagent": 1, "mean z-score": -1.32, "z-score, replicate A": -1.34, "z-score, replicate B": -1.43, "z-score, replicate C": -1.19}
{"gene": "LOC729645 (retired record)", "reagent": 1, "mean z-score": 0.36, "z-score, replicate A": -0.01, "z-score, replicate B": 0.49, "z-score, replicate C": 0.61}
{"gene": "DR1 (down-regulator of transcription 1)", "reagent": 1, "mean z-score": 0.51, "z-score, replicate A": 0.51, "z-score, replicate B": 0.42, "z-score, replicate C": 0.6}
{"gene": "IFNA1 (interferon alpha 1)", "reagent": 1, "mean z-score": 0.39, "z-score, replicate A": 0.51, "z-score, replicate B": 0.37, "z-score, replicate C": 0.28}
{"gene": "PTPN12 (protein tyrosine phosphatase non-receptor type 12)", "reagent": 1, "mean z-score": 0.78, "z-score, replicate A": 0.62, "z-score, replicate B": 0.83, "z-score, replicate C": 0.9}
{"gene": "USB1 (U6 snRNA biogenesis phosphodiesterase 1)", "reagent": 1, "mean z-score": -0.23, "z-score, replicate A": -0.13, "z-score, replicate B": -0.07, "z-score, replicate C": -0.5}
{"gene": "CTAGE4 (CTAGE family member 4)", "reagent": 1, "mean z-score": -0.31, "z-score, replicate A": -0.39, "z-score, replicate B": -0.29, "z-score, replicate C": -0.24}
